Test results reported in publication PMC10362042 (Nature Communications, 2023).
Values joined by “and” are separate entries in the source; they are usually repeats but may differ in a detail not shown here. Identical values can stand only once. Like-named read-outs stand apart in the source and are kept apart here.

Tests used:
Experiment in all cases: SPR
[1] = target: SARS-CoV-2 Omicron BA.1 RBD (residues 319-541) (SARS-CoV-2, UniProt P0DTC2 319-541)
[2] = target: T1, SARS-CoV-2 Omicron BA.2 RBD (residues 319-541) (SARS-CoV-2, UniProt P0DTC2 319-541)
[3] = target: SARS-CoV-2 Omicron BA.4/5 RBD (residues 319-541) (SARS-CoV-2, UniProt P0DTC2 319-541)
[4] = target: T1, SARS-CoV-2 Omicron BA.2 RBD (residues …); remark: listed apart in the source

| Binder | Kd [1] | koff [1] | kon [1] | Kd [2] | koff [2] | kon [2] | Kd [3] | koff [3] | kon [3] | Kd [4] | koff [4] | kon [4] |
| --- | --- | --- | --- | --- | --- | --- | --- | --- | --- | --- | --- | --- |
| Rat ACE2 (residues 1-615) (receptor) QSLIEEKAESFLNKFNQEAEDLSYQSSLASWNYNTNITEENAQKMNEAAAKWSAFYEEQSKIAQNFSLQEIQNATIKRQLKALQQSGSSALSPDKNKQLNTILNTMSTIYSTGKVCNSMNPQECFLLEPGLDEIMATSTDYNRRLWAWEGWRAEVGKQLRPLYEEYVVLKNEMARANNYEDYGDYWRGDYEAEGVEGYNYNRNQLIEDVENTFKEIKPLYEQLHAYVRTKLMEVYPSYISPTGCLPAHLLGDMWGRFWTNLYPLTTPFLQKPNIDVTDAMVNQSWDAERIFKEAEKFFVSVGLPQMTPGFWTNSMLTEPGDDRKVVCHPTAWDLGHGDFRIKMCTKVTMDNFLTAHHEMGHIQYDMAYAKQPFLLRNGANEGFHEAVGEIMSLSAATPKHLKSIGLLPSNFQEDNETEINFLLKQALTIVGTLPFTYMLEKWRWMVFQDKIPREQWTKKWWEMKREIVGVVEPLPHDETYCDPASLFHVSNDYSFIRYYTRTIYQFQFQEALCQAAKHDGPLHKCDISNSTEAGQKLLNMLSLGNSGPWTLALENVVGSRNMDVKPLLNYFQPLFVWLKEQNRNSTVGWSTDWSPYAD | 3460 nM and 3370 nM and 3420 nM and 3410 nM | 0.11 s⁻¹ | 30000 M⁻¹ s⁻¹ and 31000 M⁻¹ s⁻¹ and 32000 M⁻¹ s⁻¹ | 1890 nM and 2050 nM and 2170 nM and 2040 nM | 0.0099 s⁻¹ and 0.0081 s⁻¹ | 5700 M⁻¹ s⁻¹ and 6500 M⁻¹ s⁻¹ and 5500 M⁻¹ s⁻¹ | 1060 nM and 1010 nM and 1000 nM and 1020 nM | 0.021 s⁻¹ and 0.028 s⁻¹ and 0.032 s⁻¹ | 21000 M⁻¹ s⁻¹ and 20000 M⁻¹ s⁻¹ and 39000 M⁻¹ s⁻¹ |  |  |  |
| Mouse ACE2 (residues 1-615) (receptor) QSLTEENAKTFLNNFNQEAEDLSYQSSLASWNYNTNITEENAQKMSEAAAKWSAFYEEQSKTAQSFSLQEIQTPIIKRQLQALQQSGSSALSADKNKQLNTILNTMSTIYSTGKVCNPKNPQECLLLEPGLDEIMATSTDYNSRLWAWEGWRAEVGKQLRPLYEEYVVLKNEMARANNYNDYGDYWRGDYEAEGADGYNYNRNQLIEDVERTFAEIKPLYEHLHAYVRRKLMDTYPSYISPTGCLPAHLLGDMWGRFWTNLYPLTVPFAQKPNIDVTDAMMNQGWDAERIFQEAEKFFVSVGLPHMTQGFWANSMLTEPADGRKVVCHPTAWDLGHGDFRIKMCTKVTMDNFLTAHHEMGHIQYDMAYARQPFLLRNGANEGFHEAVGEIMSLSAATPKHLKSIGLLPSDFQEDSETEINFLLKQALTIVGTLPFTYMLEKWRWMVFRGEIPKEQWMKKWWEMKREIVGVVEPLPHDETYCDPASLFHVSNDYSFIRYYTRTIYQFQFQEALCQAAKYNGSLHKCDISNSTEAGQKLLKMLSLGNSEPWTKALENVVGARNMDVKPLLNYFQPLFDWLKEQNRNSFVGWNTEWSPYAD |  |  |  |  |  |  |  |  |  | 9.5 nM and 17.1 nM and 13.2 nM and 13.3 nM | 0.045 s⁻¹ and 0.055 s⁻¹ and 0.044 s⁻¹ | 2.5e+06 M⁻¹ s⁻¹ and 2.2e+06 M⁻¹ s⁻¹ and 2.4e+06 M⁻¹ s⁻¹ |
